Data taken from ChEMBL document CHEMBL1152255, “Evaluation of peptide-aldehyde inhibitors using R188I mutant of SARS 3CL protease as a proteolysis-resistant mutant” (2008).

Experiment: Inhibition of SARS coronavirus 3C-like protease R188I mutant by HPLC

SMILES	IC50
CC(=O)N[C@@H](CO)C(=O)N[C@@H](C)C(=O)N[C@H](C(=O)N[C@@H](CC(C)C)C(=O)N[C@H](C=O)CCC(=O)N(C)C)C(C)C	37 µM
CC(=O)N[C@H](C(=O)N[C@@H](CO)C(=O)N[C@@H](C)C(=O)N[C@H](C(=O)N[C@@H](CC(C)C)C(=O)N[C@H](C=O)CCC(=O)N(C)C)C(C)C)[C@@H](C)O	26 µM
